Results of unrelated studies side by side (data: NIAID ChemDB).

Common to all: cytotoxicity tests; cells: PBMC; method: MTT; read-out: CC50

Conditions beyond the fields shown may differ between rows. CCn is the concentration with n% toxicity to the cells.

SMILES | value
Nc1ncnc2c([C@H]3CC[C@](CCP(=O)(O)O)(C(F)(F)F)C3)c[nH]c12 | >100 µM
CCC1=C(CC)c2cc3[n-]c(cc4[n-]c(cc5nc(cc1n2)C(CC)=C5CC)c(CC)c4CC)c(CC)c3CC.[O]=[V+2] | >50 µM
Nc1ncnc2c1ncn2CCOCP(=O)(O)O | 10 µM
Nc1nc2c(ncn2[C@H]2C=C(F)[C@@H](CO)S2)c(=O)[nH]1 | >100 µM
CC#CCN1C(=O)[C@H]([C@@H](O)C2CCCCC2)NC(=O)C12CCN(Cc1c(C)nn(-c3ccccc3)c1C)CC2 | 60 µM
CCCCC#CCSc1ccccc1OC(C)=O | 105 µM
Cc1cn([C@H]2C[C@H](N=[N+]=[N-])[C@@H](CO)O2)c(=O)[nH]c1=O | >5 µM
C[C@H](Cn1cnc2c(N)ncnc21)OCP(=O)(O)O | >50 µM
Cc1cc2c(C(C)C)c(O)c(O)c(C=O)c2c(O)c1-c1c(C)cc2c(C(C)C)c(O)c(O)c(C=O)c2c1O | 12.86 µM
COc1cc(OC)nc(N2C(=O)CSC2c2c(Cl)cccc2Cl)n1 | 46 µg/mL
Nc1nc2c(ncn2[C@H]2OC[C@@](F)(C=CP(=O)(O)O)[C@H]2F)c(=O)[nH]1 | >100 µM
CC1=CC2=C(C(C)C)C(O)C(=O)/C(=C\N[C@H](CC(C)C)C(=O)O)C2C(O)=C1c1c(C)cc2c(C(C)C)c(O)c(O)c(C=N[C@@H](CC(C)C)C(=O)O)c2c1O.[Na+].[Na+] | 68.12 µM
Cc1cn([C@H]2C=C[C@@H](COC(=O)CNC(=O)C(=O)/C=C(\O)c3cc(OCc4ccccc4)cc(OCc4ccccc4)c3)O2)c(=O)[nH]c1=O | >10 µM
Nc1ncnc2c1ncn2[C@H]1CC[C@@](F)(CCP(=O)(O)O)C1 | 98 µM
CC[C@H](C)[C@H]1NC(=O)[C@@H](NC(=O)OC(C)(C)C)[C@@H](C)OC(=O)[C@H](Cc2ccc(OC)cc2)N(C)C(=O)[C@@H]2CCCN2C(=O)[C@H](CC(C)C)NC(=O)C(C)(C)NC(=O)C[C@@H]1O | >59.17 µM
CC(C)[C@H](NC(=O)c1ccc2ccccc2n1)C(=O)N[C@@H](Cc1ccccc1)[C@H](O)CN1CC[C@@H](OCc2ccncc2)C[C@H]1C(=O)NC(C)(C)C | 33 µM
Nc1ncnc2c1ncn2[C@H]1OC[C@@](F)(CCP(=O)(O)O)[C@H]1F | >100 µM
CC1(C)CC[C@]2(C(=O)O)CC[C@]3(C)C(=CC[C@@H]4[C@@]5(C)CC[C@H](O[C@@H]6OC[C@@H](O)[C@H](OC7O[C@H](CO)[C@H](O)[C@H](O)[C@H]7O)[C@H]6O)C(C)(C)[C@@H]5CC[C@]43C)[C@@H]2C1 | 5.86 µg/mL
CC(C)Nc1nc(N)nc2c1ncn2[C@H]1CO[C@@H](CO)O1 | 97.3 µM
CC(C)[C@H](N)C(=O)O.[Na+] | 70.67 µM
NC(=O)c1cc2c(-c3ccc4c(c3)CCO4)cncc2s1 | 32.3 µM
Nc1ccc(-c2ccc3ncc4ccc(=O)n(-c5cccc(C(F)(F)F)c5)c4c3c2)cn1 | 0.0883 µM
Nc1ncnc2c1ncn2[C@@H]1C=C(F)[C@H](CO)S1 | >100 µM
Nc1ncnc2c1ncn2CCOCP(=O)(O)O | >100 µM
CC[C@H](C)[C@H]1NC(=O)[C@@H](NC(=O)[C@@H](C)N(C)C(=O)OCc2ccccc2)[C@@H](C)OC(=O)[C@H](Cc2ccc(OC)cc2)N(C)C(=O)[C@@H]2CCCN2C(=O)[C@H](CC(C)C)NC(=O)[C@@H](C)C(=O)[C@H](C(C)C)OC(=O)C[C@@H]1O | >48.3 µM
CC(C)C[C@H](N)C(=O)O.[Na+] | 68.12 µM
O=c1[nH]cnc2c1ncn2[C@H]1CC[C@@](F)(CCP(=O)(O)O)C1 | 80 µM
CC[C@H](C)[C@H](N)C(=O)O.[Na+] | 73.36 µM
CCCCN1C(=O)C(CC2CCCCC2)NC(=O)C12CCN(Cc1ccc3c(c1)OCCO3)CC2 | 50 µM
COc1c(C)c2c(c(O)c1C/C=C(\C)CCC(=O)O)C(=O)OC2 | >0.5 µM
Nc1nc(NC2CCC2)c2ncn([C@H]3CO[C@@H](CO)O3)c2n1 | >100 µM
Nc1ncnc2c1ncn2C1CC(/C=C/P(=O)(O)O)(C(F)(F)F)CO1 | >100 µM
CC[C@H](C)[C@H]1NC(=O)[C@@H](NC(=O)[C@@H](CC(C)C)N(C)S(=O)(=O)c2ccc(C)cc2)[C@@H](C)OC(=O)[C@H](Cc2ccc(OC)cc2)N(C)C(=O)[C@@H]2CCCN2C(=O)[C@H](CC(C)C)NC(=O)[C@H](C(C)C)OC(=O)C[C@@H]1O | >48.02 µM
O=Nc1c(-c2c(O)[nH]c3ccccc23)[nH]c2ccccc12 | >4 µM
Cc1ccc2c(c1)nc(-c1ccc(N(C)C)cc1)n2CCc1ccccc1 | >100 µM
Nc1nc(NC2CC2)c2ncn([C@H]3C=C[C@@H](CO)O3)c2n1 | 84.5 µM
CCCCC1(CCCC)OCC(C)(CS(=O)(=O)c2ccc(Cl)cc2)OO1 | >100 µM
CCc1nc2ccccn2c1C(=O)c1cccs1 | >100 µM
CCCCCCCCCCCCCC(=O)OC[C@@H]1O[C@H](n2cc(F)c(N)nc2=O)CS1 | >6.561 µM
Nc1ccn([C@H]2C=C(F)[C@@H](CO)S2)c(=O)n1 | >100 µM
Cc1ccc(-c2ccc3c(c2)C=C(C(=O)Nc2ccc(C[N+](C)(C)C4CCOCC4)cc2)CCC3)cc1 | 50 µM
Nc1ncnc2c1ncn2CCOCP(=O)(O)O | >100 µM
CC[C@@H](C)[C@@H](N/C=C1\C(=O)C(O)C(C(C)C)=C2C=C(C)C(c3c(C)cc4c(C(C)C)c(O)c(O)c(C=N[C@H](C(=O)O)[C@@H](C)CC)c4c3O)=C(O)C21)C(=O)O.[Na+].[Na+] | 73.36 µM
O=C(O)C(=O)CC(=O)c1cc(OCc2ccccc2)cc(OCc2ccccc2)c1 | >10 µM
CC[C@@]1(O)C(=O)OCc2c1cc1n(c2=O)Cc2cc3cc(O)ccc3nc2-1 | 0.0363 µg/mL
CC(=O)OC[C@@H]1C=C[C@H](n2cc(F)c(N)nc2=O)O1 | >100 µM
Nc1nc2c(ncn2C2CC(/C=C/P(=O)(O)O)(C(F)(F)F)CO2)c(=O)[nH]1 | >100 µM
Nc1nc2c(ncn2[C@H]2CO[C@@H](CO)O2)c(=O)n1Cc1ccccc1 | >100 µM
CS(=O)CCCCN=C=S | 10.4 µM

Repeating the first 3 entries:

SMILES,value
Nc1ncnc2c([C@H]3CC[C@](CCP(=O)(O)O)(C(F)(F)F)C3)c[nH]c12,>100 µM
CCC1=C(CC)c2cc3[n-]c(cc4[n-]c(cc5nc(cc1n2)C(CC)=C5CC)c(CC)c4CC)c(CC)c3CC.[O]=[V+2],>50 µM
Nc1ncnc2c1ncn2CCOCP(=O)(O)O,10 µM